# Results reported in patent US20180327367A1, “MACROCYCLIC BROAD SPECTRUM ANTIBIOTICS” (priority 2015, published 2018).
# Amino acid sequences for entries named in this document (tags omitted).
# UniProt P0A070, whole entry: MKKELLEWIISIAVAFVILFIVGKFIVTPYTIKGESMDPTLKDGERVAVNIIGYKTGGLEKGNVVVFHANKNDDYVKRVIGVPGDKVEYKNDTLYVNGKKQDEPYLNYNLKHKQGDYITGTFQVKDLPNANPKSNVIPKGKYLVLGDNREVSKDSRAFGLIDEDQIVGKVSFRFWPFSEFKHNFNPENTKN
# Tested on: Escherichia coli ATCC 25922
# Experiment: Minimum inhibitory concentration, broth micro-dilution (CLSI), E. coli
# Type: cell-based
# Conditions: E. coli ATCC 25922; 35° C., 22 hours
row,Compound,MIC (μg/mL) E. coli [µg/mL]
1,CCC/C=C/c1ccc(C(=O)N[C@@H](CCN)C(=O)N(C)[C@@H]2C(=O)N[C@@H](C)C(=O)N[C@H](C(=O)NCC#N)Cc3ccc(OCCN)c(c3)-c3cc2ccc3OCCN)c(C)c1,0.63
2,CCCCCCCCCCCCCC(=O)N[C@@H](CCN)C(=O)N(C)[C@@H]1C(=O)N[C@@H](C)C(=O)N[C@H](C(=O)NCC#N)Cc2ccc(OCC(N)=O)c(c2)-c2cc1ccc2OCC(N)=O,12

# Same assay, conditions: E. coli ATCC 25922; 35° C., 22 hours; tested form: formic acid salt
row,Compound,MIC (μg/mL) E. coli [µg/mL]
1,Cc1cc(-c2ccc(C(C)(C)C)cc2)ccc1C(=O)N[C@@H](CCCN)C(=O)N(C)[C@@H]1C(=O)N[C@@H](C)C(=O)N[C@H](C(=O)NCC#N)Cc2ccc(OCCN)c(c2)-c2cc1ccc2OCCN,0.22
2,CCCCCCCCc1ccc(C(=O)N[C@@H](CCCCN)C(=O)N(C)[C@@H]2C(=O)N[C@@H](C)C(=O)N[C@H](C(=O)NCC#N)Cc3ccc(OCCN)c(c3)-c3cc2ccc3OCCN)cc1,0.75
3,CCCCCCCCCC(=O)N[C@@H](CCC)C(=O)N[C@@H](CCN)C(=O)N(C)[C@@H]1C(=O)N[C@@H](C)C(=O)N[C@H](C(=O)NCC#N)Cc2ccc(OCCN)c(c2)-c2cc1ccc2OCCN,1.5
4,CCCCCCCCc1ccc(C(=O)N[C@@H](CCN)C(=O)N(C)[C@@H]2C(=O)N[C@@H](C)C(=O)N[C@H](C(=O)NCC#N)Cc3ccc(OCCN)c(c3)-c3cc2ccc3OCCN)c(CC)c1,0.19
5,Cc1cc(C(C)C(C)(C)C)ccc1C(=O)N[C@@H](CCN)C(=O)N(C)[C@@H]1C(=O)N[C@@H](C)C(=O)N[C@H](C(=O)NCC#N)Cc2ccc(OCCN)c(c2)-c2cc1ccc2OCCN (stereo partly drawn),1.3

# Molecular target: SpsB (Staphylococcus aureus signal peptidase) (Staphylococcus aureus, UniProt P0A070)
# Experiment: not given
# Conditions: read-out: SpsB IC50; whole-cell S. aureus (USA300 background, overexpressing SpsB) as SpsB source; fluorogenic peptide substrate, kinetic read 30 min
row,Compound,IC50 [pM]
1,CCC/C=C/c1ccc(C(=O)N[C@@H](CCN)C(=O)N(C)[C@@H]2C(=O)N[C@@H](C)C(=O)N[C@H](C(=O)NCC#N)Cc3ccc(OCCN)c(c3)-c3cc2ccc3OCCN)c(C)c1,680
2,CCCCCCCCCCCCCC(=O)N[C@@H](CCN)C(=O)N(C)[C@@H]1C(=O)N[C@@H](C)C(=O)N[C@H](C(=O)NCC#N)Cc2ccc(OCC(N)=O)c(c2)-c2cc1ccc2OCC(N)=O,2300

# Same assay, conditions: read-out: SpsB IC50; whole-cell S. aureus (USA300 background, overexpressing SpsB) as SpsB source; fluorogenic peptide substrate, kinetic read 30 min; tested form: formic acid salt
row,Compound,IC50 [pM]
1,Cc1cc(-c2ccc(C(C)(C)C)cc2)ccc1C(=O)N[C@@H](CCCN)C(=O)N(C)[C@@H]1C(=O)N[C@@H](C)C(=O)N[C@H](C(=O)NCC#N)Cc2ccc(OCCN)c(c2)-c2cc1ccc2OCCN,750
2,CCCCCCCCc1ccc(C(=O)N[C@@H](CCCCN)C(=O)N(C)[C@@H]2C(=O)N[C@@H](C)C(=O)N[C@H](C(=O)NCC#N)Cc3ccc(OCCN)c(c3)-c3cc2ccc3OCCN)cc1,< 500
3,CCCCCCCCCC(=O)N[C@@H](CCC)C(=O)N[C@@H](CCN)C(=O)N(C)[C@@H]1C(=O)N[C@@H](C)C(=O)N[C@H](C(=O)NCC#N)Cc2ccc(OCCN)c(c2)-c2cc1ccc2OCCN,800
4,CCCCCCCCc1ccc(C(=O)N[C@@H](CCN)C(=O)N(C)[C@@H]2C(=O)N[C@@H](C)C(=O)N[C@H](C(=O)NCC#N)Cc3ccc(OCCN)c(c3)-c3cc2ccc3OCCN)c(CC)c1,560
5,Cc1cc(C(C)C(C)(C)C)ccc1C(=O)N[C@@H](CCN)C(=O)N(C)[C@@H]1C(=O)N[C@@H](C)C(=O)N[C@H](C(=O)NCC#N)Cc2ccc(OCCN)c(c2)-c2cc1ccc2OCCN (stereo partly drawn),1000

# Tested on: Methicillin Resistant Staphylococcus aureus strain USA 300, NRS384
# Experiment: Minimum inhibitory concentration, broth micro-dilution (CLSI), S. aureus
# Type: cell-based
# Conditions: MRSA USA 300 NRS384; 35° C., 22 hours
row,Compound,MIC (μg/mL) S. aureus [µg/mL]
1,CCC/C=C/c1ccc(C(=O)N[C@@H](CCN)C(=O)N(C)[C@@H]2C(=O)N[C@@H](C)C(=O)N[C@H](C(=O)NCC#N)Cc3ccc(OCCN)c(c3)-c3cc2ccc3OCCN)c(C)c1,0.047
2,CCCCCCCCCCCCCC(=O)N[C@@H](CCN)C(=O)N(C)[C@@H]1C(=O)N[C@@H](C)C(=O)N[C@H](C(=O)NCC#N)Cc2ccc(OCC(N)=O)c(c2)-c2cc1ccc2OCC(N)=O,0.25

# Same assay, conditions: MRSA USA 300 NRS384; 35° C., 22 hours; tested form: formic acid salt
row,Compound,MIC (μg/mL) S. aureus [µg/mL]
1,Cc1cc(-c2ccc(C(C)(C)C)cc2)ccc1C(=O)N[C@@H](CCCN)C(=O)N(C)[C@@H]1C(=O)N[C@@H](C)C(=O)N[C@H](C(=O)NCC#N)Cc2ccc(OCCN)c(c2)-c2cc1ccc2OCCN,0.031
2,CCCCCCCCCC(=O)N[C@@H](CCC)C(=O)N[C@@H](CCN)C(=O)N(C)[C@@H]1C(=O)N[C@@H](C)C(=O)N[C@H](C(=O)NCC#N)Cc2ccc(OCCN)c(c2)-c2cc1ccc2OCCN,0.047
3,CCCCCCCCc1ccc(C(=O)N[C@@H](CCN)C(=O)N(C)[C@@H]2C(=O)N[C@@H](C)C(=O)N[C@H](C(=O)NCC#N)Cc3ccc(OCCN)c(c3)-c3cc2ccc3OCCN)c(CC)c1,0.063
4,Cc1cc(C(C)C(C)(C)C)ccc1C(=O)N[C@@H](CCN)C(=O)N(C)[C@@H]1C(=O)N[C@@H](C)C(=O)N[C@H](C(=O)NCC#N)Cc2ccc(OCCN)c(c2)-c2cc1ccc2OCCN (stereo partly drawn),0.063

# Tested on: Escherichia coli MC4100 harboring the IMP4213 (E. coli IMP)
# Experiment: not given
# Conditions: E. coli MC4100 IMP4213, increased outer-membrane permeability; 35° C., 22 hours
row,Compound,MIC (μg/mL) E. coli IMP [µg/mL]
1,CCC/C=C/c1ccc(C(=O)N[C@@H](CCN)C(=O)N(C)[C@@H]2C(=O)N[C@@H](C)C(=O)N[C@H](C(=O)NCC#N)Cc3ccc(OCCN)c(c3)-c3cc2ccc3OCCN)c(C)c1,0.016
2,CCCCCCCCCCCCCC(=O)N[C@@H](CCN)C(=O)N(C)[C@@H]1C(=O)N[C@@H](C)C(=O)N[C@H](C(=O)NCC#N)Cc2ccc(OCC(N)=O)c(c2)-c2cc1ccc2OCC(N)=O,0.016

# Same assay, conditions: E. coli MC4100 IMP4213, increased outer-membrane permeability; 35° C., 22 hours; tested form: formic acid salt
row,Compound,MIC (μg/mL) E. coli IMP [µg/mL]
1,Cc1cc(-c2ccc(C(C)(C)C)cc2)ccc1C(=O)N[C@@H](CCCN)C(=O)N(C)[C@@H]1C(=O)N[C@@H](C)C(=O)N[C@H](C(=O)NCC#N)Cc2ccc(OCCN)c(c2)-c2cc1ccc2OCCN,0.023
2,CCCCCCCCc1ccc(C(=O)N[C@@H](CCCCN)C(=O)N(C)[C@@H]2C(=O)N[C@@H](C)C(=O)N[C@H](C(=O)NCC#N)Cc3ccc(OCCN)c(c3)-c3cc2ccc3OCCN)cc1,<0.063
3,CCCCCCCCCC(=O)N[C@@H](CCC)C(=O)N[C@@H](CCN)C(=O)N(C)[C@@H]1C(=O)N[C@@H](C)C(=O)N[C@H](C(=O)NCC#N)Cc2ccc(OCCN)c(c2)-c2cc1ccc2OCCN,0.0078
4,CCCCCCCCc1ccc(C(=O)N[C@@H](CCN)C(=O)N(C)[C@@H]2C(=O)N[C@@H](C)C(=O)N[C@H](C(=O)NCC#N)Cc3ccc(OCCN)c(c3)-c3cc2ccc3OCCN)c(CC)c1,0.016
5,Cc1cc(C(C)C(C)(C)C)ccc1C(=O)N[C@@H](CCN)C(=O)N(C)[C@@H]1C(=O)N[C@@H](C)C(=O)N[C@H](C(=O)NCC#N)Cc2ccc(OCCN)c(c2)-c2cc1ccc2OCCN (stereo partly drawn),0.031
